Compound potency records, mixed from different reports. Data source: NIAID ChemDB in PubChem.

Common to all: target-level tests; species: HIV-1; protein: Reverse transcriptase; endpoint: inhibition

Percent inhibition refers to the dose given; in toxicity tests it is the harm to the cells. Conditions beyond the fields shown may differ between rows. a–b is a range or a potency band.

O=C(CCCCCCCCC(=O)Nc1ccc(S(=O)(=O)O)c2cccc(S(=O)(=O)O)c12)Nc1ccc(S(=O)(=O)O)c2cccc(S(=O)(=O)O)c12 ; tested at: 50 µM ; read by: RT activity ; result: 43%
CCCN1C(=O)c2cc(Cl)nnc2N(CCC)c2ccccc21 ; tested at: 330 µM ; result: 54%
O=C(NCCc1ccccc1)Nc1nc(C(F)(F)F)cs1 ; tested at: 10 µg/mL ; read by: nucleotide incorporation ; result: 73–75%
CCN1C(=O)c2cc(Cl)nnc2N(CC)c2ccccc21 ; tested at: 33 µM ; result: 3%
C=CCN1C(=O)c2ccnnc2Oc2ccc(C)cc21 ; tested at: 33 µM ; read by: ELISA ; result: 29%
COC(=O)N1c2ccc(OC)cc2C=CC1C#N ; tested at: 50 µM ; read by: nucleotide incorporation ; result: 40.6%
CCCCCCCCCCCCCCc1sc(NC(=O)NCCc2ccccc2)nc1-c1ccc(Cl)cc1 ; tested at: 10 µg/mL ; read by: nucleotide incorporation ; result: 1%
CCN1c2ccccc2N(C)C(=O)c2ccnnc21 ; tested at: 33 µM ; result: 50%
Cc1nnc(NC(=O)NCCc2ccccc2)s1 ; tested at: 0.1 µg/mL ; read by: nucleotide incorporation ; result: 1%
CC(C)(C)[Si](C)(C)OCCCC[C@H]1CCCCCC[C@@H](CCCCO[Si](C)(C)C(C)(C)C)[NH+]=C(N)N1.F[B-](F)(F)F ; tested at: 10 µM ; read by: RT activity / radiometric ; result: 0%
Cc1ccc2c(c1)N(C)C(=O)c1ccnnc1O2 ; tested at: 330 µM ; read by: ELISA ; result: 37%
C[C@@H]1CCCCCC[C@H](CCCCO[Si](C)(C)C(C)(C)C)[NH+]=C(N)N1 ; tested at: 40 µM ; read by: RT activity / radiometric ; result: 69.6%
Nc1ccc(S(=O)(=O)O)c2cccc(S(=O)(=O)O)c12 ; tested at: 50 µM ; read by: RT activity ; result: 0%
N#CC1C=Cc2ccccc2N1C(=O)c1ccco1 ; tested at: 50 µM ; read by: nucleotide incorporation ; result: ≤30%
CCN1c2ncccc2C(=O)Nc2c(C=O)cc(-c3cccc(OC)c3)nc21 ; strain or isolate: RT ; tested at: 71 µM ; result: 1%
CCCOC(=O)N1c2ccc(OC)cc2C=CC1C#N ; tested at: 50 µM ; read by: nucleotide incorporation ; result: 73.6%
CCN1c2ncccc2C(=O)Nc2c(COc3ccccc3)cc(-c3cccc(OC)c3)nc21 ; strain or isolate: WT ; tested at: 69 µM ; result: 1%
C[C@@H]1CCCCCC[C@H](CCCCOCc2ccccc2)[NH+]=C(N)N1 ; tested at: 10 µM ; read by: RT activity / radiometric ; result: 13.4%
Cc1ccc2c(c1)N(CC(C)C)C(=O)c1ccnnc1O2 ; tested at: 330 µM ; read by: ELISA ; result: 71%
O=C(CCCCCCCCCCC(=O)Nc1ccc(S(=O)(=O)O)c2cccc(S(=O)(=O)O)c12)Nc1ccc(S(=O)(=O)O)c2cccc(S(=O)(=O)O)c12 ; tested at: 50 µM ; read by: RT activity ; result: 87%
CCN1C(=O)c2cc(Cl)nnc2N(C2CC2)c2ccccc21 ; tested at: 330 µM ; result: 49%
O=S(=O)(O)c1cc(S(=O)(=O)O)c2cc(NS(=O)(=O)c3ccc(-c4ccc(S(=O)(=O)Nc5ccc6cc(S(=O)(=O)O)cc(S(=O)(=O)O)c6c5)cc4)cc3)ccc2c1 ; tested at: 50 µM ; read by: RT activity ; result: 99.1%
CN1C(=O)c2ccnnc2N(C2CC2)c2ncccc21 ; tested at: 330 µM ; read by: ELISA ; result: 69%
CCCCCCCCCCCCCCCC(=O)Nc1c(O)cc(S(=O)(=O)O)c2ccccc12 ; tested at: 50 µM ; read by: RT activity ; result: 97%
N#CC1C=Cc2ccccc2N1S(=O)(=O)S(=O)(=O)c1ccccc1 ; tested at: 50 µM ; read by: nucleotide incorporation ; result: 47.8%
O=C(CCCCCCCCC(=O)Nc1ccc(S(=O)(=O)O)c2ccccc12)Nc1ccc(S(=O)(=O)O)c2ccccc12 ; tested at: 50 µM ; read by: RT activity ; result: 6%
Cc1ccnc(NC(=O)NCCc2ccccc2)n1 ; tested at: 10 µg/mL ; read by: nucleotide incorporation ; result: 9%
CCCCCCCC(=O)OCCCC[C@H]1CCCCCC[C@@H](C)NC(N)=[NH+]1 ; tested at: 40 µM ; read by: RT activity / radiometric ; result: 12.1%
CCCCN1C(=O)c2ccnnc2Oc2ccc(OC)cc21 ; tested at: 330 µM ; read by: ELISA ; result: 30%
CCCC(=O)OCCCC[C@H]1CCCCCC[C@@H](C)NC(N)=[NH+]1 ; tested at: 10 µM ; read by: RT activity / radiometric ; result: 0%
C=CCN1C(=O)c2ccnnc2Oc2ccc(OC)cc21 ; tested at: 330 µM ; read by: ELISA ; result: 59%
O=C(NCCc1ccccc1)Nc1nncs1 ; tested at: 10 µg/mL ; read by: nucleotide incorporation ; result: 14%
CCN1c2ncccc2C(=O)Nc2c(CO)cc(-c3cccc(OC)c3)nc21 ; strain or isolate: WT ; tested at: 16 µM ; result: 1%
C/C1=C\C=C\C2(C)C=C(CO[C@H]3O[C@H](CO)[C@H](O)[C@H](O)[C@H]3O)C(C)CC23OC([O-])C(C3=O)C(O)/C=C/C2(C)C=C(C=O)C(C)CC23OC([O-])C(C3=O)C(O)/C(C)=C/C=C/C2C=C(CO[C@H]3O[C@H](CO)[C@H](O)[C@H](O)[C@H]3O)C(C)CC23OC([O-])C(C3=O)C(O)/C=C/C2(C)C=C(C=O)C(C)CC23OC([O-])C(C3=O)C1O ; strain or isolate: IIIB ; tested at: 4 µg/mL ; read by: RT activity ; result: 84.3%
COc1ccc2c(c1)C=CC(C#N)N2C(=O)Oc1ccccc1 ; tested at: 50 µM ; read by: nucleotide incorporation ; result: ≤30%
CCCN1c2ccccc2N(CC)C(=O)c2ccnnc21 ; tested at: 330 µM ; result: 59%
O=C1NC(c2c[nH]c3ccc(O)cc23)=C/C1=C1\C(=O)NC2C=CC=CC12 ; tested at: 200 µM ; read by: RT activity / ELISA ; result: 32.08%
CCCN1C(=O)c2ccnnc2N(CC)c2ccccc21 ; tested at: 33 µM ; result: 31%
O=C(NCCc1ccccc1)Nc1nc2ccc(Cl)cc2s1 ; tested at: 1 µg/mL ; read by: nucleotide incorporation ; result: 18%
CCCCCCCCCCCCCCCC(=O)Nc1ccc(S(=O)(=O)O)c2cccc(S(=O)(=O)O)c12 ; tested at: 50 µM ; read by: RT activity ; result: 99.84%
C=CCN1C(=O)c2cc(Cl)nnc2N(C2CC2)c2ccccc21 ; tested at: 33 µM ; result: 27%
CC(C)COC(=O)N1c2ccc([N+](=O)[O-])cc2C=CC1C#N ; tested at: 50 µM ; read by: nucleotide incorporation ; result: 68.6%
Cc1cc(C)c2c(c1)N(C(C)C)C(=O)c1ccnnc1O2 ; tested at: 33 µM ; read by: ELISA ; result: 65%
CCN1c2ncccc2C(=O)Nc2c(CO)cc(OC)nc21 ; strain or isolate: WT ; tested at: 89 µM ; result: 1%
CN1C(=O)c2cc(Cl)nnc2N(C2CC2)c2ncccc21 ; tested at: 330 µM ; read by: ELISA ; result: 64%